Construct, isoform or probe ends are uncertain for at least one entry.
Assays:
[1] = target: T1, NhaR (Vibrio parahaemolyticus) (UniProt Q87S97); assay: EMSA; conditions: residues 1-296; probe letters rebuilt from the primers and the genome
T1 sequence: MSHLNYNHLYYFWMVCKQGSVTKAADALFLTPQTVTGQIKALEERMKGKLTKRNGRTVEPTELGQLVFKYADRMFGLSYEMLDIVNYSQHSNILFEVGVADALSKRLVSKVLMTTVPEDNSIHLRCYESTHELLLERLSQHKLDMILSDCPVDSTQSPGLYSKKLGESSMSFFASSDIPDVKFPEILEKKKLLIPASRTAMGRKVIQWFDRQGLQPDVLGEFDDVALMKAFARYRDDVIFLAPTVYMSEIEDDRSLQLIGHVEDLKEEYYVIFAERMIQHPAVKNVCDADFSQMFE

[2] = target: T2, LeuO (Vibrio parahaemolyticus) (UniProt Q87SS2); assay: EMSA; conditions: residues 1-319; probe letters rebuilt from the primers and the genome
T2 sequence: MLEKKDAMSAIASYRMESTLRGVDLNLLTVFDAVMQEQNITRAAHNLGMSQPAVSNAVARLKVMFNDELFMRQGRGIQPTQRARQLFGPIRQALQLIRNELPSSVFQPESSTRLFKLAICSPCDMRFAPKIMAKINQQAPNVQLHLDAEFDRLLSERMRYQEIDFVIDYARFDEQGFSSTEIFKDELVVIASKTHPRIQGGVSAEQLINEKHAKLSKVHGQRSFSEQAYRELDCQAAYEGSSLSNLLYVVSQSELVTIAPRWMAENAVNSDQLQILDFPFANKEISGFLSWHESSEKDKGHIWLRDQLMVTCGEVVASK

Row | Sequence | binding result [1] | binding result [2]
1 | CCCACTGCATTCTGACTCATGTTGAGTTGTTTCGTATTAAATGATGCTTTAATAAATTAGAGTTCAAACTATTTTAAATTTAGGTTAAATGTTGCTTTTGTGTGATTTTAGTCACATTAATCCAGATTAAAACGCAG (double strand) [PectA probe 1B] | binds | 
2 | CCAAGGTGCTGATGTGATCATTTTGAAATACATATCCTTTGACGTCTAATTAAATTTCGTATTTATTATGGACATTCTTTACGGTTGAAAATCAAATAATCTGCGTTTTAATCTGGATTAATGTGACTAAAATCACACAAAAGCAACATTTAACCTAAATTTAAAATAGTTTGAACTCTAATTTATTAAAGCATCATTTAATACGAAACAACTCAACATGAGTCAGAATGCAGTGGGGTTTCAAAGAGGGGACTTAAGGTTTTTTACATAAAAAAACGGCACACTTTCGCATGCCGTTTTAAGGTTAGTTTTGTCGTCGTGGC (double strand) [PectA probe 1 (called PectA-2 in Fig. S5 legend)] | binds | binds

Source: publication doi:10.1101/2022.11.11.516238
